Results of unrelated studies side by side (data: NIAID ChemDB).

All rows: host cell toxicity; cells: CEM; measure: CC50

CCn: concentration that lowers growth or viability of the cells by n%. Lines come from different laboratories, so protocols vary.

compound,value
Cc1cn([C@H]2C[C@H](N=[N+]=[N-])[C@@H](CO)O2)c(=O)[nH]c1=O,>100 µM
C=CCO,200 µM
Nc1ccn([C@H]2CC[C@@H](CO)O2)c(=O)n1,>20 µg/mL
CN(C)[C@@H]1C(=O)C(C(=O)NCN2CCCC2)=C(O)[C@@]2(O)C(=O)C3=C(O)c4c(O)cccc4[C@@](C)(O)[C@H]3C[C@@H]12,>45.5 µM
CC(C)(C)OC(=O)N[C@@H](Cc1ccccc1)[C@H](O)CNC[C@@H](O)[C@H](Cc1ccccc1)NC(=O)OC(C)(C)CCO,>10 µM
S=c1[nH]c2cc(Cl)c(Cl)cc2[nH]1,>100 µM
Cc1cn([C@H]2C[C@H](N=[N+]=[N-])[C@@H](COP(=O)(O)OC[C@@H]3CC[C@H](n4cnc5c(=O)[nH]cnc54)O3)O2)c(=O)[nH]c1=O,>100 µM
Cc1cn([C@H]2C[C@H](N=[N+]=[N-])[C@@H](CO)O2)c(=O)[nH]c1=O,80 µM
Cc1ccc(NC(=O)C23CC4CC(CC(C4)C2)C3)c(C(=O)N/N=C/c2cccs2)c1,>200 µM
CN(C)[C@@H]1C(=O)C(C(=O)NCNC2(C(=O)[O-])CCCC2)=C(O)[C@@]2(O)C(=O)C3=C(O)c4c(O)cccc4[C@@](C)(O)[C@H]3C[C@@H]12.[Na+],>0.6 µM
NC(=S)N=Nc1c(O)cc(Nc2ccc(Cl)cc2Cl)c2ccccc12,200 µM
Cc1cn([C@H]2CC(N=[N+]=[N-])[C@@H](COP(=O)(OCCC#N)OC[C@H]3CC[C@@H](n4cnc5c(=O)[nH]cnc54)O3)O2)c(=O)[nH]c1=O,56.6 µM
O=C(O)c1ccc(NC(=O)c2ccccc2SSc2ccccc2C(=O)Nc2ccc(C(=O)O)cc2)cc1,28 µM
C[C@H](O)C(C)(C)OC(=O)N[C@@H](Cc1ccccc1)[C@H](O)CNC[C@@H](O)[C@H](Cc1ccccc1)NC(=O)OC(C)(C)C,>10 µM
Nc1ccccc1C(=O)NNC(=O)c1ccccc1N,>200 µM
CC(O)C(NCNC(=O)C1=C(O)C2(O)C(=O)C3=C(O)c4c(O)cccc4C(C)(O)C3CC2C(N(C)C)C1=O)C(=O)O,>37 µM
Cc1cn([C@H]2CC(SSC(Cl)(Cl)Cl)[C@@H](CO)O2)c(=O)[nH]c1=O,<121 µM
Cc1occc1C(=S)Nc1ccc(Cl)c(/C=N/OC(C)(C)C)c1,5.8 µg/mL
Nc1nc2c(ncn2[C@H]2C=C[C@@H](CO)C2)c(=O)[nH]1,60.5 µg/mL
Cc1ccc(Nc2nc(NS(=O)(=O)c3cc(C)c(Cl)cc3S)n[nH]2)cc1,>200 µM
Cc1ccc2nc(C34CC5CC(CC(C5)C3)C4)oc(=O)c2c1,80 µM
Nc1ncnc2c1ncn2C1CC(CO)C1,>456 µM
Cc1cn([C@H]2C[C@H](F)[C@@H](CP(=O)(O)O)O2)c(=S)[nH]c1=O,>200 µM
C=CCSSCC=C,88 µM
CC(C)OC(=O)CCc1ccccc1O[P@@](=O)(N[C@@H](C)C(=O)OC(C)C)OC[C@H]1O[C@@H](n2cnc3c(N)nc(N)nc32)[C@](C)(O)[C@@H]1O,>100 µM
Cc1cn([C@H]2C[C@H](F)[C@@H](CO)O2)c(=O)[nH]c1=O,0.58 µg/mL
Nc1nc(NC2CC2)c2ncn([C@H]3C=C[C@@H](COP4(=O)OCc5ccccc5O4)C3)c2n1,110 µM
COC(=O)[C@@H](NC(=O)[C@@H](NC(=O)CC[C@H](O)[C@H](Cc1ccccc1)NC(=O)[C@H](C)NC(=O)[C@H](C)NC(=O)OCc1ccccc1)C(C)C)C(C)C,>100 µM
CC(C)(C)OC(=O)N[C@@H](Cc1ccccc1)[C@H](O)CNC[C@@H](O)[C@H](Cc1ccccc1)NC(=O)OC(C)(C)CO,>10 µM
Cc1cn([C@H]2C=C[C@@](C#N)(CO)O2)c(=O)[nH]c1=O,100 µM
Cc1cc(C2(c3cc(C)c(O)c(CN(CC(=O)O)CC(=O)O)c3)OS(=O)(=O)c3ccccc32)cc(CN(CC(=O)O)CC(=O)O)c1O,>100 µM
COc1cc(C2C(Cl)C(=O)N2NC(=O)c2ccccc2O)cc(OC)c1OC,4.4 µM
CCOC(=O)CCc1ccccc1OP(=O)(N[C@@H](C)C(=O)OCC)OC[C@H]1O[C@@H](n2cnc3c(N)nc(N)nc32)[C@](C)(O)[C@@H]1O,>100 µM
CN(C)CCCNC(=O)c1cc(NC(=O)c2cc(NC(=O)c3cc(NC4C(=O)c5ccccc5C4=O)cn3C)cn2C)cn1C,56 µM
Cc1cc(S(=O)(=O)Nc2nnc3c4ccccc4ccn23)c(S)cc1Cl,200 µM
O=C(O)CCNC(=O)c1ccccc1SSc1ccccc1C(=O)NCCC(=O)O,>120 µM
CCCCn1cnnc1NS(=O)(=O)c1cc(C)c(Cl)cc1SCC(=O)O,>200 µM
COc1cc2nc(C34CC5CC(CC(C5)C3)C4)oc(=O)c2cc1OC,65.8 µM
C[C@]1(/C=C/P(=O)(O)O)CO[C@@H](n2cnc3c(N)ncnc32)C1,>100 µM
CCOCn1c(Cc2ccccc2)c(C(C)C)c(=O)[nH]c1=O,≥20 µg/mL
Nc1nc(Br)nc2c1ncn2[C@H]1CC[C@@H](CO)O1,8 µM
CCOC(=O)CCNC(=O)c1ccccc1SSc1ccccc1C(=O)NCCC(=O)OCC,40 µM
Cc1cc(SC2=C(O)CC(CCc3ccc(O)cc3)(C3CCCCC3)OC2=O)c(C(C)(C)C)cc1OS(=O)(=O)N(C)C,60 µM
Nc1ccn([C@H]2CC[C@@H](CO)O2)c(=O)n1,>0.05 µM
CCOC(=O)[C@H](C)NP(=O)(OC[C@H]1O[C@@H](n2cnc3c(N)nc(N)nc32)[C@](C)(O)[C@@H]1O)Oc1ccccc1CCC(=O)OC(C)C,>100 µM
CC(C)=CCN1Cc2cc(Cl)cc3[nH]c(=S)n(c23)C[C@@H]1C,28.4 µM
CC(C)(C)OC(=O)N[C@@H](Cc1ccccc1)[C@H](O)CNC[C@@H](O)[C@H](Cc1ccccc1)NC(=O)OC1(CO)CCC1,>10 µM
Cc1cc(S(=O)(=O)Nc2nc3ccccc3[nH]2)c(S)cc1Cl,58.2 µM
Nc1nc2c(ncn2COCCOP2(=O)OCc3ccccc3O2)c(=O)[nH]1,165 µM
O=c1[nH]cnc2c1ncn2[C@H]1CC[C@@H](CO)O1,760 µM
Cc1cc(C(F)(F)F)cc(-n2nc(NS(=O)(=O)c3cc(C)c(Cl)cc3S)nc2N)n1,149 µM
Cc1occc1C(=S)Nc1ccc(Cl)c(C(=O)OC2CCCC2)c1,4.3 µg/mL
CC1=C(C(=O)Nc2ccc(Cl)c(C(=O)OC(C)C)c2)SCCO1,2 µM
CCN(c1ccccc1)c1nc(N)nc(NS(=O)(=O)c2cc(C)c(Cl)cc2S)n1,>200 µM
COC1(OC)CCCCC2c3cccc(OC(C)=O)c3C21OC(C)=O,26 µM
O=c1oc(C23CC4CC(CC(C4)C2)C3)nc2ccc(Cl)cc12,>200 µM
Cc1ccc2c(c1)COP(=O)(OCCOCn1cnc3c(=O)[nH]c(N)nc31)O2,111 µM
COc1cccc2c1C(=O)c1c(O)c3c(c(O)c1C2=O)C[C@@](O)(C(=O)CO)C[C@@H]3O[C@H]1C[C@H](N(C)C)[C@H](O)[C@H](C)O1,>0.2 µM
Nc1ccn([C@@H]2CS[C@H](CO)O2)c(=O)n1,>200 µM
NC(N)=NS(=O)(=O)c1ccc(Nc2c3ccccc3nc3c(C(=O)NC(CO)(CO)CO)cccc23)cc1,>3.3 µM
CN(C)CCCNC(=O)c1cc(NC(=O)c2cc(NC(=O)c3cc(NC(=O)c4cccc(C(=O)Nc5cc(C(=O)Nc6cc(C(=O)Nc7cc(C(=O)NCCCN(C)C)n(C)c7)n(C)c6)n(C)c5)n4)cn3C)cn2C)cn1C,>100 µM
Nc1nc(NC2CC2)c2ncn([C@H]3C=C[C@@H](COP4(=O)OCc5cc(Cl)ccc5O4)C3)c2n1,113 µM
CC(C)c1ccc(C(c2ccc(OCC(=O)O)cc2)c2ccc(C(C)C)cc(=O)c2O)c(O)c(=O)c1,>11.7 µM
CCOC(=O)CCc1ccccc1O[P@](=O)(N[C@@H](C)C(=O)OC(C)C)OC[C@H]1O[C@@H](n2cnc3c(N)nc(N)nc32)[C@](C)(O)[C@@H]1O,>100 µM
CN(C)CCCNC(=O)c1cc(NC(=O)c2cc(NC(=O)c3cc(NC(=O)c4ccccc4C(=O)O)cn3C)cn2C)cn1C,>200 µM
O=C(NN1C(=O)C(Cl)C1c1ccc(O)cc1)c1ccccc1O,10.3 µM
Cc1ccc(NC(=O)C23CC4CC(CC(C4)C2)C3)c(C(=O)NN)c1,38.9 µM
Cc1cc(S(=O)(=O)Nc2nc(N)n(-c3ccccc3)n2)c(S)cc1Cl,>200 µM
CCOC(=O)NN(C(=O)OCC)C(=C(C1CCCCC1)N1CCOCC1)N(NC(=O)OCC)C(=O)OCC,200 µM
O=c1[nH]cnc2c1ncn2[C@H]1CC[C@@H](CO)O1,>100 µM
CC#C[C@@]1(CO)C=C[C@H](n2cc(C)c(=O)[nH]c2=O)O1,>100 µM
CC1=NN(C(=O)c2ccc(Cl)cc2)C(=O)/C1=C/c1cccc(O)c1,>8 µM
Nc1nc2c(ncn2CCOCP(=O)(O)O)c(=O)[nH]1,10 µg/mL
CCCNC(=O)c1cc(C)ccc1NC(=O)C12CC3CC(CC(C3)C1)C2,>200 µM
CN(C)CCCNC(=O)c1cc(NC(=O)c2cc(NC(=O)c3cc(NC(=O)c4ccc(C(=O)Nc5cc(C(=O)Nc6cc(C(=O)Nc7cc(C(=O)NCCCN(C)C)n(C)c7)n(C)c6)n(C)c5)cc4)cn3C)cn2C)cn1C,>100 µM
Cc1cc(SC2=C(O)C[C@@](CCc3ccc(N)cc3)(C(C)C)OC2=O)c(C(C)(C)C)cc1CO,>92 µM
Nc1nc(NC2CC2)c2ncn([C@H]3C=C[C@@H](CO)C3)c2n1,542 µM
O=C(O)c1ccc2ccc(/C=C/c3ccc(O)c(O)c3)nc2c1O,>100 µM
O=C1CN=C(c2ccc[nH]2)c2cc(Cl)ccc2N1,1.18 µg/mL
O=C(O)P(=O)(O)O,>100 µM
Cc1cc(S(=O)(=O)Nc2n[nH]c(Nc3ccccc3)n2)c(S)cc1Cl,>200 µM
Cc1ccc(NC(=O)c2ccccc2SSc2ccccc2C(=O)Nc2ccc(C)cc2)cc1,28 µM
CC(=O)OC(OC(C)=O)c1cc(C)c2c(c1)COP(=O)(OC[C@@H]1C=C[C@H](n3cc(C)c(=O)[nH]c3=O)O1)O2,19 µM
O=C(OC[C@H]1O[C@@H](n2c(=S)[nH]c3cc(Cl)c(Cl)cc32)C(OC(=O)c2ccccc2)C1OC(=O)c1ccccc1)c1ccccc1,>100 µM
CCc1c(Sc2ccccn2)n(COCc2ccccc2)c(=O)[nH]c1=O,0.98 µM
CN(C)CCCNC(=O)c1cc(NC(=O)c2cc(NC(=O)c3cc(NC(=O)c4cncc(C(=O)Nc5cc(C(=O)Nc6cc(C(=O)Nc7cc(C(=O)NCCCN(C)C)n(C)c7)n(C)c6)n(C)c5)c4)cn3C)cn2C)cn1C,>100 µM
CN/N=C(/c1nc2ccc([N+](=O)[O-])cc2[nH]c1=O)C(O)c1ccc(C(O)/C(=N/NC)c2nc3ccc([N+](=O)[O-])cc3[nH]c2=O)cc1,>78 µM
Nc1ncnc2c1ncn2CCOCP(=O)(O)O,>100 µg/mL
O=C(NN1C(=O)C(Cl)C1c1cccc(Cl)c1)c1ccccc1O,>74 µM
CN(C(=O)c1ccccc1SSc1ccccc1C(=O)N(C)c1ccc(S(N)(=O)=O)cc1)c1ccc(S(N)(=O)=O)cc1,>100 µM